This is an account of results in patent US6413750B1, “(R)-specific alcohol dehydrogenases from lactobacillus with improved catalytic activity using an NAD+ substrate” (Forschungszentrum Jülich GmbH, priority 1998, dated 2002).

A short description of this data set: Temperature optimum of enzyme activity. The class given is biochemical, Lactobacillus brevis. The method, then:
The optimal temperature was determined for reductive reactions at pH 7.0 with the two coenzymes NADH and NADPH to be 55° C. in both cases. The temperature stability was determined as residual activity after 25 h incubation at various temperatures. At 37° C., still 95% reactivity was obtained; at 42° C. still 34%.

Take “mutant 2/2: L. brevis ADH mutant with exchanges A9G, R38L, H39L, K48M (SEQ ID NO 19) (SNRLDGKVGIITGGTLGIGLAIATKFVEEGAKVMITGLLSDVGEKAAMSV; OTHER INFORMATION: mutant 2/2)”: the temperature optimum is, setting by setting: (pH 5.0, NADH) 50 °C; (pH 5.0, NADPH) 42 °C.

“mutant 1/1: L. brevis ADH mutant with exchanges A9G, R38L, K45M (SEQ ID NO 17) (SNRLDGKVGIITGGTLGIGLAIATKFVEEGAKVMITGLHSDVGEMAAKSV; OTHER INFORMATION: mutant 1/1)”: the temperature optimum result was “about 40 °C” (determined with NADH) and “at least 65 °C” (measured with NADPH).
